Only a part is listed here, and it is no random draw. The source made the active and inactive calls. No stated cut-off is given here; in the data, active means inhibition above about 26%; inactive means the rest.
What follows are compounds tested on Candida albicans multidrug efflux pump MDR1 (expressed in S. cerevisiae AD1-8u) (assay: inhibitors of Candida albicans Mdr1 efflux, confirmation, flow cytometry, singleplex, Cherry Pick1 set (AID 588518;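 further: 0% = DMSO vehicle and 100% = reference inhibitor; higher means more Nile Red retained so more efflux inhibition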)). Conditions: S. cerevisiae AD/CaMDR1, Nile Red efflux, at 10 µM, hits give high values.

Structure (SMILES)	inhibition
O=P(Nc1nccs1)(c1ccccc1)c1nc2ccccc2s1 (stereo unspecified)	inactive: -0.23%
